PubChem BioAssay AID1224833, University of Georgia, 2016
This is a random part of about 12,000 reagents tested. About 5,600 of all reagents (46%) count as active. 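Active calls cover z-scores past 1 in both directions, so they include lowered as well as raised rotavirus replication.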 Unmarked entries are inactive.

Assay: 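Human genes whose knock-down alters rotavirus replication in monkey cells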 (primary screen)
Cells: monkey MA104 kidney cells
Reagents: siRNA pool against human genes, 50 nM
Time to read-out: 48 h knock-down before infection; read 24 h after infection
Challenge: infection with rotavirus strain RV3 two days after transfection; infectious dose for this stage not given
Read-out: 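Rotavirus antigen per well by fluorescent immunoassay, normalised to non-targeting control wells on each plate and given as a standard z-score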
Reading the numbers: z-score vs non-targeting control: higher = more rotavirus replication than with non-targeting control
Call rule: In these data the active calls have z-score vs non-targeting control at about -1 or lower, or at about 1 or higher
Meaning of the calls: active = z-score beyond 1 either way; inactive = z-score within 1 of zero

Silencing of ZFYVE16 (zinc finger FYVE-type containing 16) resulted in: z-score vs non-targeting control -0.617.
Against TBL1X (transducin beta like 1 X-linked) the deposit lists z-score vs non-targeting control 0.0363.
After knock-down of TUBB4B (tubulin beta 4B class IVb), the screen gave z-score vs non-targeting control -1.09 (active).
ZNF169 (zinc finger protein 169) scored z-score vs non-targeting control 0.0164.
SPART (spartin) scored z-score vs non-targeting control -0.29.
Against DCAF12 (DDB1 and CUL4 associated factor 12), the values are z-score vs non-targeting control -0.0451.
With knock-down of CACFD1 (calcium channel flower domain containing 1), the screen gave z-score vs non-targeting control -1.15 (active).
SLC35G5 showed z-score vs non-targeting control -0.194.
Knock-down of DLGAP2 (DLG associated protein 2) came out at: z-score vs non-targeting control -1.04 (active).
BRI3 (brain protein I3) scored z-score vs non-targeting control 0.0263.
For MIPOL1 (mirror-image polydactyly 1), the entry reads z-score vs non-targeting control -0.842.
Knock-down of PLA2G4B (phospholipase A2 group IVB) gave: z-score vs non-targeting control -0.225.
ZNF75A (zinc finger protein 75A) showed z-score vs non-targeting control -0.184.
Silencing of HSFY2 (heat shock transcription factor Y-linked 2) gave: z-score vs non-targeting control -0.874.
ICAM2 (intercellular adhesion molecule 2) showed z-score vs non-targeting control 0.47.
AAMDC (adipogenesis associated Mth938 domain containing) showed z-score vs non-targeting control -0.872.
STAC3 (SH3 and cysteine rich domain 3) gave z-score vs non-targeting control 0.201.
Silencing of CHIC2 (cysteine rich hydrophobic domain 2) came out at: z-score vs non-targeting control 0.12.
Against APOE (apolipoprotein E), the entry reads z-score vs non-targeting control 2.11 (active).
NPY4R (neuropeptide Y receptor Y4) gave z-score vs non-targeting control -0.884.
TRMT2B (tRNA methyltransferase 2B) showed z-score vs non-targeting control -0.581.
Knock-down of MSMB (microseminoprotein beta) came out at: z-score vs non-targeting control 1.79 (active).
ATP7A (ATPase copper transporting alpha) showed z-score vs non-targeting control -0.503.
Silencing of SREBF1 (sterol regulatory element binding transcription factor 1) came out at: z-score vs non-targeting control -2.13 (active).
Depletion of ANGPTL1 (angiopoietin like 1) resulted in: z-score vs non-targeting control -0.779.
Against GSPT2 (G1 to S phase transition 2), the entry reads z-score vs non-targeting control -1.34 (active).
Against OXLD1 (oxidoreductase like domain containing 1) the deposit lists z-score vs non-targeting control -1.1 (active).
APEX2 (apurinic/apyrimidinic endodeoxyribonuclease 2) gave z-score vs non-targeting control -0.956.
Depletion of FLII (FLII actin remodeling protein) gave: z-score vs non-targeting control -1.14 (active).
After knock-down of E2F4 (E2F transcription factor 4), the record shows z-score vs non-targeting control -2.18 (active).
RCC1L (RCC1 like) showed z-score vs non-targeting control -0.374.
Silencing of EEF1E1 (eukaryotic translation elongation factor 1 epsilon 1) came out at: z-score vs non-targeting control 0.637.
After knock-down of TAF8 (TATA-box binding protein associated factor 8), the record shows z-score vs non-targeting control 0.14.
With knock-down of RRP15 (ribosomal RNA processing 15 homolog) the results were z-score vs non-targeting control 0.414.
After knock-down of DNAJC30 (DnaJ heat shock protein family (Hsp40) member C30), the screen gave z-score vs non-targeting control 0.187.
With knock-down of SNX16 (sorting nexin 16), the record shows z-score vs non-targeting control 1.94 (active).
For NGF (nerve growth factor), the values are z-score vs non-targeting control -2.13 (active).
Against CFDP1 (chromatin remodeling protein CFDP1), the values are z-score vs non-targeting control -0.211.
KRT15 (keratin 15) gave z-score vs non-targeting control 0.165.
THAP5 (THAP domain containing 5) gave z-score vs non-targeting control -0.242.
After knock-down of CR1 (complement C3b/C4b receptor 1 (Knops blood group)), the record shows z-score vs non-targeting control 1.35 (active).
TBC1D26 (TBC1 domain family member 26) gave z-score vs non-targeting control -1.99 (active).
After knock-down of IGFBP7 (insulin like growth factor binding protein 7), the screen gave z-score vs non-targeting control 0.859.
COL24A1 (collagen type XXIV alpha 1 chain) gave z-score vs non-targeting control -1.18 (active).
GPR179 (G protein-coupled receptor 179) gave z-score vs non-targeting control 0.881.
With knock-down of GAGE2C (G antigen 2C), the screen gave z-score vs non-targeting control 0.999.
For CA9 (carbonic anhydrase 9) the deposit lists z-score vs non-targeting control -0.866.

Look-ups from the list:
Result of STAC3 (SH3 and cysteine rich domain 3) in “z-score vs non-targeting control”: 0.201
TAF8 (TATA-box binding protein associated factor 8), z-score vs non-targeting control = 0.14
For “z-score vs non-targeting control”, TUBB4B (tubulin beta 4B class IVb) is entered as -1.09 (active)
NPY4R (neuropeptide Y receptor Y4), z-score vs non-targeting control: -0.884
Result of NGF (nerve growth factor) in “z-score vs non-targeting control”: -2.13 (active)
MIPOL1 (mirror-image polydactyly 1), z-score vs non-targeting control: -0.842
